Source: US20040121316A1 (priority 2002, published 2004)

Assays:
[1] = tested on: mutant HIV-1 I84V/L90M; assay: Resistance Evaluation, I84V/L90M fold change; assay type: cell-based; settings: EC50 of mutant I84V/L90M relative to wild type; class symbols
[2] = tested on: recombinant HIV-1 8K 46I 90M; assay: Cross-Resistance Profile Assay; assay type: cell-based; settings: protease mutations 8K 46I 90M
[3] = tested on: recombinant HIV-1 46I 47V 50V; assay type: cell-based; settings: protease mutations 46I 47V 50V
[4] = tested on: recombinant HIV-1 10F 46I 71V 82T 90M; assay: Cross-Resistance Profile Assay; assay type: cell-based; settings: protease mutations 10F 46I 71V 82T 90M
[5] = tested on: recombinant HIV-1 48V 54V 71V 82S; assay type: cell-based; settings: protease mutations 48V 54V 71V 82S
[6] = tested on: recombinant HIV-1 10I 48V 54V 82A; settings: protease mutations 10I 48V 54V 82A
[7] = tested on: recombinant HIV-1 30N 50S 82I 88D; settings: protease mutations 30N 50S 82I 88D
[8] = tested on: recombinant HIV-1 10I 48V 71V 82A 90M; settings: protease mutations 10I 48V 71V 82A 90M
[9] = tested on: recombinant HIV-1 10I 84V 71V 73S 90M; settings: protease mutations 10I 84V 71V 73S 90M
[10] = tested on: recombinant HIV-1 46I 84A; assay: Cross-Resistance Profile Assay; settings: protease mutations 46I 84A
[11] = tested on: recombinant HIV-1 10R 46I 82T 84V; assay: Cross-Resistance Profile Assay; settings: protease mutations 10R 46I 82T 84V
[12] = tested on: recombinant HIV-1 54V 71V 82S; assay: Cross-Resistance Profile Assay; settings: protease mutations 54V 71V 82S
[13] = target: 84V90M HIV protease (Human immunodeficiency virus type 1 group M subtype B, UniProt P04585, I572V/L578M); assay type: biochemical, HIV-1; settings: Enzymatic assay
[14] = tested on: HIV-1 84V90M; settings: MT-4, 84V90M; read-out: Cell-based assay (MT-4) EC50/nM 84V90M

Molecule	I84V/L90M fold change [1]	Fold Change in EC50 Relative to WT HIV-1 [2]	Fold Change in EC50 Relative to WT HIV-1 [3]	Fold Change in EC50 Relative to WT HIV-1 [4]	Fold Change in EC50 Relative to WT HIV-1 [5]	Fold Change in EC50 Relative to WT HIV-1 [6]	Fold Change in EC50 Relative to WT HIV-1 [7]	Fold Change in EC50 Relative to WT HIV-1 [8]	Fold Change in EC50 Relative to WT HIV-1 [9]	Fold Change in EC50 Relative to WT HIV-1 [10]	Fold Change in EC50 Relative to WT HIV-1 [11]	Fold Change in EC50 Relative to WT HIV-1 [12]	further results
CCOC(=O)C(C)NP(=O)(COc1ccc(CC(NC(=O)OC2COC3OCCC23)C(O)CN(CC(C)C)S(=O)(=O)c2ccc(OC)cc2)cc1)Oc1ccccc1 (stereo not drawn) [Example 30b]	− (≦3)												
CCOC(=O)C(C)OP(=O)(COc1ccc(CC(NC(=O)OC2COC3OCCC23)C(O)CN(CC(C)C)S(=O)(=O)c2ccc(OC)cc2)cc1)Oc1ccccc1 (stereo not drawn) [Example 31e]	− (≦3)												
CCCCOC(=O)C(C)NP(=O)(COc1ccc(CC(NC(=O)OC2COC3OCCC23)C(O)CN(CC(C)C)S(=O)(=O)c2ccc(OC)cc2)cc1)NC(C)C(=O)OCCCC (stereo not drawn) [GS-16503]		1.2 fold	3.3 fold	1 fold	0.5 fold	0.4 fold	0.6 fold	0.4 fold	2 fold	1 fold	1 fold	0.9 fold	
CCOC(=O)C(C)NP(=O)(COc1ccc(CC(NC(=O)OC2COC3OCCC23)C(O)CN(CC(C)C)S(=O)(=O)c2ccc(OC)cc2)cc1)Oc1ccccc1 (stereo not drawn) [GS-16571]		1.8 fold	0.8 fold	0.8 fold	0.2 fold	0.3 fold	0.7 fold	0.2 fold	0.9 fold	1 fold	0.6 fold	0.6 fold	
CCCCOC(=O)C(C)NP(=O)(COc1ccc(CC(NC(=O)OC2COC3OCCC23)C(O)CN(CC(C)C)S(=O)(=O)c2ccc(OC)cc2)cc1)NC(C)C(=O)OCCCC (stereo not drawn) [drawing 612 R1=Ala-Bu R2=Ala-Bu]	− (≦3)												
DMP-850 [reference compound]													IC50 [13]: 9.1 nM; EC50 [14]: 819 nM
